From published antibiotic growth screens (doi:10.1038/s41589-023-01349-8)
This is one part of the list.

What follows are compounds tested on A. baumannii ATCC 17978 (assay: relative growth (fraction of control); higher = less inhibition). Settings: 50 µM.

| SMILES | relative growth |
| --- | --- |
| CC1OC(O[C@H]2/C=C/C=C/C=C/C=C/C=C/C=C/C=C/[C@H](C)[C@@H](O)[C@@H](C)[C@H](C)OC(=O)CC(O)CC(O)CCC(O)C(O)CC(O)C[C@]3(O)C[C@H](O)C(C(=O)O)C(C2)O3)C(O)[C@H](N)C1O (some centres not stated) | 0.986 |
| COC(=O)CCc1ccc(OC)cc1O | 1.03 |
